Earlier results as cited in patent US20020195406A1, “Compositions and methods for disinfecting small diameter water lines” (priority 2001, published 2002).

Tested on: dental unit water bacteria
Settings: weekly treatment with 5000 ppm chlorine (diluted bleach) plus 3 ppm chlorinated water in the unit; cited from earlier work

Substance: chlorine
- bacterial level attained: < 200 cfu/ml
